Compound potency records, mixed from different reports. Data source: NIAID ChemDB in PubChem.

Shared fields: tests on isolated targets; species: HIV-1; target: Reverse transcriptase; measure: IC50

Lines come from different laboratories, so protocols vary. ICn: concentration for n% inhibition. Blank or dashed fields: not listed here. a–b is a range or a potency band.

compound	mutations	strain	method	value
COc1ccccc1CC(=O)Nc1ccc(NC(=O)CSc2nnnn2-c2ccc(C(C)(C)C)cc2Cl)c(Cl)c1	RT-K103 Y181C	-	PicoGreen / fluorescence	<1 µM
N#Cc1cc(Cl)cc(Oc2cc(OCc3nc4cccc(Cl)c4s3)ccc2Cl)c1	-	-	nucleotide incorporation / radiometric	<20 µM
CC(C)(C#Cc1ccc(NC(=O)CSc2nnnn2-c2ccc(C3CC3)cc2Cl)c(Cl)c1)NC(=O)CN1CCN(CCn2cccc2)CC1	RT-K103 Y181C	-	PicoGreen / fluorescence	<1 µM
CCN1c2ncc(CCOc3cccc4c3CCNC4=O)cc2-c2ncc(C)n2-c2cccnc21	-	-	nucleotide incorporation / radiometric	<0.05 µM
CCN1c2ncc(CCOc3ccc(NS(C)(=O)=O)c4ccccc34)cc2C(=O)N(C)c2ccc(F)nc21	RT-V106A	-	nucleotide incorporation / radiometric	0.1–1 µM
CC(C)(C)c1ccc(-n2nnnc2SCC(=O)Nc2ccc(C#CCO)cc2Cl)c(Cl)c1	RT-K103 Y181C	-	PicoGreen / fluorescence	<1 µM
NC(=S)c1[nH]c2ccc(Cl)cc2c1Sc1ccccc1	-	-	nucleotide incorporation	0.003–0.035 µM
NS(=O)(=O)c1ccc(NC(=O)COc2cccc(Oc3ccccc3)c2)c(Cl)c1	-	-	nucleotide incorporation / radiometric	<20 µM
C[C@@H](O)CNC(=O)c1[nH]c2ccc(Cl)cc2c1Sc1ccccc1	-	-	nucleotide incorporation	0.003–0.035 µM
CCN1c2ncc(CCOc3cccc4c3COC(=O)N4)cc2-c2ncc(C)n2-c2cccnc21	RT-K103N Y181C	-	nucleotide incorporation / radiometric	>0.1 µM
CCCCCCC(O)C(=O)O[C@H]1CC(C)(C)[C@@H]2CC=C(C=O)C3[C@@H](O)OC(=O)[C@@]32[C@H]1O	-	-	nucleotide incorporation	190 µM
Cc1cc(Cl)c(-n2nnnc2SCC(=O)Nc2ccc(C#CC(C)(C)O)cc2Cl)cc1C(F)(F)F	RT-K103 Y181C	-	PicoGreen / fluorescence	<1 µM
N#Cc1cc(Cl)cc(Oc2cc(OCc3[nH]nc4nc(N5CCC5)ccc34)ccc2Cl)c1	-	-	nucleotide incorporation / radiometric	<20 µM
O=C(CSc1nnnn1-c1ccc(C2CC2)cc1Cl)Nc1ccc(C#CCCN2CCC(O)CC2)cc1Cl	-	WT	PicoGreen / fluorescence	<1 µM
CCN1c2ncc(CCOc3cccc4c3CNC4=O)cc2-c2ncc(C)n2-c2cccnc21	RT-K103N Y181C	-	nucleotide incorporation / radiometric	>0.1 µM
Cc1cc(S(N)(=O)=O)ccc1NC(=O)COc1ccccc1C(=O)c1cc(Cl)cc(C#N)c1	-	WT	nucleotide incorporation / radiometric	0.0082 µM
CCN1c2ncc(CCc3ccc4c(SC)c[nH]c4c3)cc2C(=O)N(C)c2ccc(Cl)nc21	RT-Y181C	-	nucleotide incorporation / radiometric	<1 µM
CN(C)c1ccc(Cl)c(-n2nnnc2SCC(=O)Nc2ccc(C#CC(C)(C)C(=O)O)cc2Cl)c1	RT-K103 Y181C	-	PicoGreen / fluorescence	<1 µM
O=C(NC1CC1)c1[nH]c2ccc(Cl)cc2c1S(=O)c1ccccc1	-	-	nucleotide incorporation	0.003–0.035 µM
CCN1c2ncc(CCc3cccc(I)c3)cc2C(=O)N(C)c2ccc(Cl)nc21	RT-Y181C	-	nucleotide incorporation / radiometric	<1 µM
CC(C)(C)c1ccc(-n2nnnc2SCC(=O)Nc2ccc(NC(=O)Cc3c(Cl)cccc3Cl)cc2Cl)c(Cl)c1	RT-K103 Y181C	-	PicoGreen / fluorescence	<1 µM
CCNc1cccnc1N1CCN(Cc2cc3cc(OC)ccc3[nH]2)CC1	-	-	nucleotide incorporation	<100 µM
CN1C(=O)c2cc(CCc3ccncc3)cnc2N(C2CC2)c2nc(Cl)ccc21	RT-Y181C	-	nucleotide incorporation / radiometric	<1 µM
CCN1c2ncc(CCOc3ccc(NS(C)(=O)=O)cc3C)cc2C(=O)N(C)c2cccnc21	RT-K103N Y181C	IIIB	nucleotide incorporation / radiometric	<0.05 µM
Nc1nc2c(ncn2[C@H]2CC[C@@H](COP(=O)(O)OP(=O)(O)OP(=O)(O)O)O2)c(=O)[nH]1	RT-Y181C	-	nucleotide incorporation	0.15 µM
Cc1nnc(SCC(=O)Nc2ccc(-c3ccc(OCC(=O)O)cc3)cc2Cl)n1-c1ccc(C(C)(C)C)cc1Cl	-	WT	PicoGreen / fluorescence	<1 µM
O=C(c1cc2ccccc2[nH]1)N1CCN(c2nccnc2NC2CC2)CC1	-	-	nucleotide incorporation	<100 µM
CCN1c2ncccc2C(=O)N(C)c2ccc(-c3cnn(C)c3)nc21	-	WT	nucleotide incorporation / radiometric	<1 µM
CCN1c2ncc(CCc3ccncc3)cc2C(=O)N(C)c2ccc(CCc3ccncc3)nc21	RT-Y181C	-	nucleotide incorporation / radiometric	>1 µM
CNC(=O)NC(C)(C)C#Cc1ccc(NC(=O)CSc2nnnn2-c2ccc(C3CC3)cc2Cl)c(Cl)c1	RT-K103 Y181C	-	PicoGreen / fluorescence	<1 µM
CCN1c2ncc(CCOc3ccc(S(=O)(=O)NC(C)=O)c4ccccc34)cc2C(=O)N(C)c2cccnc21	RT-K103N Y181C	-	nucleotide incorporation / radiometric	0.1–1 µM
CC1(C)C[C@H](O)[C@H](O)[C@]23C(=O)O[C@H](O)[C@H]2C(C=O)=CC[C@@H]13	-	-	nucleotide incorporation	140 µM
CC(C)(C)c1ccc(-n2nnnc2SCC(=O)Nc2ccc(OCC(=O)N3CCOCC3)cc2Cl)c(Cl)c1	-	WT	PicoGreen / fluorescence	<1 µM
CCN1c2ncc(CCOc3cccc4c3ccc[n+]4[O-])cc2C(=O)N(C)c2ccc(Cl)nc21	RT-K103N P225H	-	nucleotide incorporation / radiometric	0.017 µM
Cn1ccnc1CNC(=O)c1[nH]c2ccc(Cl)cc2c1S(=O)(=O)c1cccc(Cl)c1	-	-	nucleotide incorporation	0.003–0.035 µM
CC(C)Nc1cccnc1N1CCN(C(=O)c2cc3ccccc3[nH]2)CC1	-	-	nucleotide incorporation	<100 µM
CCN1c2ncc(CCOc3ccc(C(C)CC(=O)O)c4ccccc34)cc2C(=O)N(C)c2cccnc21	RT-V106A	-	nucleotide incorporation / radiometric	>1 µM
Cc1cccc2[nH]c(C(=O)N3CCN(c4ncccc4NC(C)C)CC3)cc12	-	-	nucleotide incorporation	<100 µM
Cc1cc(-c2ccc(CC(=O)O)cc2)ccc1OCCc1cnc2c(c1)C(=O)N(C)c1cccnc1N2	RT-K103N Y181C	IIIB	nucleotide incorporation / radiometric	>0.1 µM
CC(C)Nc1cnccc1N1CCN(C(=O)c2cc3cc(F)ccc3[nH]2)CC1	-	-	nucleotide incorporation	<100 µM
CC(C)(C)c1ccc(-n2nnnc2SCC(=O)Nc2ccc(-c3ccc(OCCN4CCCC4)cc3)cc2Cl)c(Cl)c1	-	WT	PicoGreen / fluorescence	<1 µM
CCN1c2ncccc2C(=O)N(C)c2ccc(-c3c[nH]c(C(=O)O)c3)nc21	RT-Y188L	-	nucleotide incorporation / radiometric	>1 µM
CCNc1cccnc1N1CCN(Cc2cc3ccccc3[nH]2)CC1	-	-	nucleotide incorporation	<100 µM
CC(C)(C#Cc1ccc(NC(=O)CSc2nnnn2-c2ccc(C(C)(C)C)cc2Cl)c(Cl)c1)OCC(=O)NC1(C(=O)O)CC1	RT-K103 Y181C	-	PicoGreen / fluorescence	<1 µM
CCn1c(=O)c(C)cn([C@@H]2O[C@H](CO[Si](C)(C)C(C)(C)C)C3(OS(=O)(=O)C=C3N)[C@H]2O[Si](C)(C)C(C)(C)C)c1=O	-	-	-	1.1 µM
CCN1c2ncc(CCOc3ccc(C(=O)O)c4ccccc34)cc2C(=O)Nc2c(C)cc(F)nc21	RT-Y188L	-	nucleotide incorporation / radiometric	>1 µM
CCN1c2ncc(CCOc3ccc(-c4cnccc4C)cc3C)cc2C(=O)N(C)c2cccnc21	-	IIIB	nucleotide incorporation / radiometric	<0.05 µM
CC(C)(C#Cc1ccc(NC(=O)CSc2nnnn2-c2cc(CC3CC3)ccc2Cl)c(Cl)c1)C(=O)O	-	WT	PicoGreen / fluorescence	<1 µM
CCCN1c2nc(-c3cn[nH]c3)ccc2NC(=O)c2cccnc21	RT-Y188L	-	nucleotide incorporation / radiometric	>1 µM
CCN1c2ncc(CCOc3ccc4c(c3)C(C)(C)NS4(=O)=O)cc2-c2nccn2-c2c(C)ccnc21	-	-	nucleotide incorporation / radiometric	<0.05 µM
CC(C)(C#Cc1ccc(NC(=O)CSc2nnnn2-c2ccc(C(C)(C)C)cc2Cl)c(Cl)c1)OCC(=O)O	-	WT	PicoGreen / fluorescence	<1 µM
CCN1c2ncc(CCOc3cccc4c3CNC(=O)N4)cc2-c2nccn2-c2cccnc21	RT-K103N Y181C	-	nucleotide incorporation / radiometric	<0.05 µM
CCN1c2ncccc2C(=O)N(C)c2ccc(-c3cc[nH]c3)nc21	RT-Y188L	-	nucleotide incorporation / radiometric	<1 µM
CC(=O)NC(C(=O)Nc1ccc(NC(=O)CSc2nnnn2-c2ccc(C(C)(C)C)cc2Cl)c(Cl)c1)c1ccccc1	RT-K103 Y181C	-	PicoGreen / fluorescence	<1 µM
COc1c(C)cc(C(=O)N2CCN(c3ncccc3NC(C)C)CC2)cc1C	-	-	nucleotide incorporation	<100 µM
Cc1ccc(-n2nnnc2SCC(=O)Nc2ccc(-c3ccc(CC(N)=O)cc3)cc2[N+](=O)[O-])c(Cl)c1	-	WT	PicoGreen / fluorescence	<1 µM
CCN1c2ncccc2C(=O)N(C)c2ccc(-c3cnn(CC)c3)nc21	RT-Y188L	-	nucleotide incorporation / radiometric	>1 µM
O=C(CSc1nnnn1-c1ccc(C2CC2)cc1Cl)Nc1ccc(C(=O)NCc2ccc[n+]([O-])c2)cc1Cl	RT-K103 Y181C	-	PicoGreen / fluorescence	<1 µM
CCN1c2ncccc2C(=O)N(C)c2ccc(-c3ccn(C)c3)nc21	-	WT	nucleotide incorporation / radiometric	<1 µM
CC(C)Nc1cccnc1N1CCN(C(=O)c2cc3cc(N)ccc3[nH]2)CC1	-	-	nucleotide incorporation	<100 µM
CCN1c2ncccc2C(=O)N(C)c2ccc(-c3c[nH]c(C#N)c3)nc21	-	WT	nucleotide incorporation / radiometric	<1 µM
CC(C)(C)c1ccc(-n2nnnc2SCC(=O)Nc2ccc(NC(=O)Cc3ccc4ccoc4c3)cc2Cl)c(Cl)c1	-	WT	PicoGreen / fluorescence	<1 µM
O=C(c1cc2ccccc2[nH]1)N1CCN(c2ncccc2NCCF)CC1	-	-	nucleotide incorporation	<100 µM
CCN1c2ncccc2C(=O)N(C)c2ccc(-c3cccn3C)nc21	RT-Y181C	-	nucleotide incorporation / radiometric	<1 µM
CC(C)(C)c1ccc(-n2nnnc2SCC(=O)Nc2ccc(OCC(=O)NC3CCOCC3)cc2Cl)c(Cl)c1	-	WT	PicoGreen / fluorescence	<1 µM
CCN1c2ncc(CCOc3ccc(-c4csc(N)n4)cc3C)cc2C(=O)N(C)c2cccnc21	-	IIIB	nucleotide incorporation / radiometric	<0.05 µM
N#Cc1cc(Cl)cc(Oc2cc(OCc3[nH]nc4nc(N)ccc34)cc(F)c2Cl)c1	-	-	nucleotide incorporation / radiometric	<20 µM

Repeating the first 6 entries:

| compound | mutations | strain | method | value |
|---|---|---|---|---|
| COc1ccccc1CC(=O)Nc1ccc(NC(=O)CSc2nnnn2-c2ccc(C(C)(C)C)cc2Cl)c(Cl)c1 | RT-K103 Y181C | - | PicoGreen / fluorescence | <1 µM |
| N#Cc1cc(Cl)cc(Oc2cc(OCc3nc4cccc(Cl)c4s3)ccc2Cl)c1 | - | - | nucleotide incorporation / radiometric | <20 µM |
| CC(C)(C#Cc1ccc(NC(=O)CSc2nnnn2-c2ccc(C3CC3)cc2Cl)c(Cl)c1)NC(=O)CN1CCN(CCn2cccc2)CC1 | RT-K103 Y181C | - | PicoGreen / fluorescence | <1 µM |
| CCN1c2ncc(CCOc3cccc4c3CCNC4=O)cc2-c2ncc(C)n2-c2cccnc21 | - | - | nucleotide incorporation / radiometric | <0.05 µM |
| CCN1c2ncc(CCOc3ccc(NS(C)(=O)=O)c4ccccc34)cc2C(=O)N(C)c2ccc(F)nc21 | RT-V106A | - | nucleotide incorporation / radiometric | 0.1–1 µM |
| CC(C)(C)c1ccc(-n2nnnc2SCC(=O)Nc2ccc(C#CCO)cc2Cl)c(Cl)c1 | RT-K103 Y181C | - | PicoGreen / fluorescence | <1 µM |